Reference: article PMC8397897

How the values were obtained:
[1] = target: DENV capsid protein (DENVC) (Dengue virus 2 strain 16681) (UniProt O09234); assay: confocal microscopy recruitment to GUV; conditions: ERmix GUVs; printed with U although named ssDNA; chemistry ambiguous; recombinant protein; residues 1-100; label: 5' FITC; single-stranded DNA
[2] = target: DENV capsid protein (DENVC) (Dengue virus 2 strain 16681) (UniProt O09234); assay: fluorescence anisotropy; conditions: recombinant protein, residues 1-100, label: 5' Cy5

“GGACAGGAAUUAAUAGUAGCUGUCC [FITC-ssDNASel25]”: binds [1].

With “CAUCAUGCAGGACAGUCGGAUCGCAGUCAG [Cy5-RNA]” the Kd [2] was 100 nM.

“AAACTATTATTACTCATTTTCCGCCAGCAGTCAACTTCGATTTAATTCGTAAACAGATCT [Cy5-DNA]” showed a Kd ([2]; single-stranded DNA) of 100 nM.

For at least one entry, the source does not settle the construct or the ends of the probe. For part of these data: At least one verdict was read from the data and is not stated in words by the source.
